# Results reported in the supplement of paper PMC9931576.
# Human monoclonal antibodies against the spike receptor-binding domain (heavy:light variable regions). IC50 against pseudoviruses bearing the spike of naturally observed variants; lower = stronger; >10 µg/ml means not reached at the top dose. No active / inactive call. The stated detection limit is 0.0005 µg/ml; values near or below 0.001 µg/ml lie at the floor of the assay.
# B1: BD56-1888 (protein)
# chain 1: QVQLQESGPGLVKPSETLSLTCTVSGGSVSSGNSYWHWIRQSPGKGLEWVGYIYYSGGANYNPSLKSRVTISIDTSKNQFSLKVISVTTADTAVYYCAREPIVVPAALPPYGLDVWGQGTTVTVSS
# chain 2: EIVLTQSPATLSLSPGERATLSCRASQSFNIYLAWYQQKPGQAPRLLIYDSSNRATGIPARFSGSGSGTDFTLTISSLEPEDFAVYYCLQRSNWPPLTFGGGTKVEIK
# B2: BD56-1878 (protein)
# chain 1: QVQLVQSGAEVKKPGSSVKVSCKASGGTFSSYAITWVRQAPGQGLEWMGRIFPILNTANYALKFQGRVTITADKSTSTAYMELPSLRSEDTAVYYCARDGNNYDSSGLPAEYFQLWGQGTLVTVSS
# chain 2: QSVLTQPPSVSGAPGQRVTISCTGSNSNIGAGYDVHWYQQLPGTAPKLLIYGNTNRPSGVPDRFSGSKSGTSASLAITGLQAEDEADYYCQSYDSSLSDSVFGGGTKLTVL
# B3: BD56-1879 (protein)
# chain 1: QVQLVQSGAEVKKPGSSVKVSCKASGGSVRTDAIIWVRQAPGQGLEWMGRIIPLPGVTNYAQKIQGRVTITADTSTSTTYMELNSLRFDDSAVYYCARGASGKDAMDVWGQGTTVTVSS
# chain 2: DIQMTQSPSTLSASVGDRVTITCRASQTINSWLAWYQQKPGKAPKLLIYDASTLESGVPSRFSGSGSGTEFTLTISSLQPDDFATYYCQQYHSYSPVTFGQGTKVEIK
# B4: BD56-1890 (protein)
# chain 1: QVQLVQSGAEVKKPGSSVKVSCKVSGGTFSSHALSWVRQAPGQGLEWMGTIIPILGITTYAQSFQGRVTITADKSTNTVYMDLNSLRSEDTAVFYCAKRPWPDELFFGDAGFNVWGQGTVVTVSS
# chain 2: DIVMTQSPLSLPVTPGESASISCRSNQSLLHSNGYSYLDWYLQKPGQSPQLLIYLGSNRASGVPDRFSGSGSGTDFTLRISRVEAEDVGVYYCMQALQTGFTFGPGTKVDIK
# B5: BD56-1889 (protein)
# chain 1: QVQLVESGGGVVQPGRSLRLSCAASGFSFSTYGMHWVRQAPGKGLEWVALIWNDGSNKYHADSVKGRFTISRDNSKNTLYMQMNSLRAEDTAMYYCARDNGPYGDYGIDSWGQGTLVTVSS
# chain 2: DIVMIQTPLSLAVTPGQPASISCKSSQSLLQINGKTYLFWYLQRPGQSPHLLIYEGSHRFSGVPDRFSGSGSGTDFTLKISRVEAEDVGVYYCMQSKHLPWTFGQGTKVEIK
# B6: BD56-1885 (protein)
# chain 1: QITLKESGPTLVKPTQTLTVTCTFSGFSLSSSGVGVGWIRQPPGKALEWLGIIYWDGDQRYSPSLKTRLTITTDTSKNQVILTMTNMDPVDTATYYCAHLVGGLWGFDPWGQGTLVTVSS
# chain 2: QSVLTQPPSASGTPGQRVTISCSGSSSNIGSNYVCWYQQFPGTAPKLLMYNNNQRPSGVPDRFSGSKSGTSASLAISGLRSEDEADYYCAAWDDSLSDWLFGGGTKLTVL
# Target: SARS-CoV-2 Omicron BA.1 spike pseudovirus
# Experiment: pseudovirus neutralization IC50; higher = weaker neutralization
# Procedure: (§1)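 Single-round VSV luciferase pseudovirus mixed with antibody dilutions for 1 h and put on Huh-7 cells for about a day; IC50 from the dose curve.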
row,Binder,pseudovirus neutralization IC50
1,B1,0.00187 µg/mL
2,B2,0.0828 µg/mL
3,B3,> 10 µg/mL
4,B4,0.0282 µg/mL
5,B5,> 10 µg/mL
6,B6,0.195 µg/mL

# Target: SARS-CoV-2 Omicron BA.2 spike pseudovirus
# Experiment: as above
# Procedure: as §1
row,Binder,pseudovirus neutralization IC50
1,B1,0.839 ng/mL
2,B2,74.4 ng/mL
3,B3,24.6 ng/mL
4,B4,6.6 ng/mL
5,B5,> 10000 ng/mL
6,B6,0.197 ng/mL

# Target: SARS-CoV-2 Omicron BA.2.75 spike pseudovirus
# Experiment: as above
# Procedure: as §1
row,Binder,pseudovirus neutralization IC50
1,B1,0.00083 µg/mL
2,B2,0.16 µg/mL
3,B3,> 10 µg/mL
4,B4,0.0115 µg/mL
5,B5,> 10 µg/mL
6,B6,0.0161 µg/mL

# Target: SARS-CoV-2 Omicron BA.5 spike pseudovirus
# Experiment: as above
# Procedure: as §1
row,Binder,pseudovirus neutralization IC50
1,B1,3.48 µg/mL
2,B2,> 10 µg/mL
3,B3,4.97 µg/mL
4,B4,> 10 µg/mL
5,B5,> 10 µg/mL
6,B6,0.00141 µg/mL

# Target: SARS-CoV-2 Omicron BQ.1.1 spike pseudovirus
# Experiment: as above
# Procedure: as §1
row,Binder,pseudovirus neutralization IC50
1,B1,> 10 µg/mL
2,B2,> 10 µg/mL
3,B3,> 10 µg/mL
4,B4,> 10 µg/mL
5,B5,> 10 µg/mL
6,B6,> 10 µg/mL

# Target: SARS-CoV-2 Omicron XBB spike pseudovirus
# Experiment: as above
# Procedure: as §1
row,Binder,pseudovirus neutralization IC50
1,B1,0.454 µg/mL
2,B2,> 10 µg/mL
3,B3,> 10 µg/mL
4,B4,> 10 µg/mL
5,B5,> 10 µg/mL
6,B6,7.7 µg/mL

# Target: SARS-CoV-2 early D614G spike pseudovirus
# Experiment: as above
# Procedure: as §1
row,Binder,pseudovirus neutralization IC50
1,B1,0.00114 µg/mL
2,B2,0.24 µg/mL
3,B3,0.0021 µg/mL
4,B4,0.0135 µg/mL
5,B5,> 10 µg/mL
6,B6,0.0113 µg/mL
